## Sequence variants of PSTVd loop 6 after infection

Data from the supplement of Wu et al. 2024, doi:10.1371/journal.ppat.1012142.

Region: loop 6 of PSTVd (intermediate strain), upper and lower strand joined, each 5' to 3', the first 5 letters being the upper strand, closing pairs included. Wild type: UGACCGCGAG. Varied positions (N): UNNNCGNNNG.

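Three N. benthamiana plants were inoculated with the whole mutant pool. Samples came from the inoculated region at 5 days, the leaf margin at 10 and upper systemic leaves at 12.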

Numbers give reads per thousand; 0 = not seen among the reads, higher = more abundant. Each value is the mean of three plants. "Pool" is the share in the plasmid pool used as inoculum, on the same scale. The inoculated region was read from the minus strand, the other sites from the plus strand.

UCCUCGUGGG (pool 0.144) gave inoculated region 0.0656; leaf margin 0; systemic leaves 0. With UGCUCGCGUG (pool 0.196) the assay gave inoculated region 0.137; leaf margin 0.00920; systemic leaves 0. For UAUGCGUUCG (pool 0.248) the result was inoculated region 0.0531; leaf margin 0; systemic leaves 0. UAGUCGGACG (pool 0.170) read inoculated region 0.0893; leaf margin 0; systemic leaves 0. UGCACGGUUG (pool 0.275) gave inoculated region 0.101; leaf margin 0.00773; systemic leaves 0. For UUUGCGCUUG (pool 0.314) the result was inoculated region 0.0836; leaf margin 0.00920; systemic leaves 0. For UCCGCGCGUG (pool 0.170) the result was inoculated region 0.113; leaf margin 0; systemic leaves 0. UUUACGAACG (pool 0.105) gave inoculated region 0.136; leaf margin 0; systemic leaves 0. For UAGACGCGCG (pool 0.196) the result was inoculated region 0.596; leaf margin 0.102; systemic leaves 0.

For UACCCGUAUG (pool 0.275) the result was inoculated region 0.0956; leaf margin 0.127; systemic leaves 0. For UACUCGGAGA (pool 0.0392) the result was inoculated region 0; leaf margin 0; systemic leaves 0. With UUGCCGGGCG (pool 0.157) the assay gave inoculated region 0.0650; leaf margin 0.0247; systemic leaves 0. With UCAGCGCAUG (pool 0.0784) the assay gave inoculated region 0.113; leaf margin 0; systemic leaves 0. With UAUGCGGGUG (pool 0.275) the assay gave inoculated region 0.0773; leaf margin 0; systemic leaves 0. With UCCGCGCGAG (pool 0.222) the assay gave inoculated region 0.0889; leaf margin 0.0176; systemic leaves 0.0188. UCGACGCUGG (pool 0.157) gave inoculated region 0.0759; leaf margin 0.00920; systemic leaves 0. UGCACGGCAG (pool 0.131) gave inoculated region 0.728; leaf margin 0.0846; systemic leaves 0.0400. With UUCUCGCCUG (pool 0.366) the assay gave inoculated region 0.119; leaf margin 0.0338; systemic leaves 0.

UUGGCGCUCG (pool 0.327) gave inoculated region 0.113; leaf margin 0; systemic leaves 0. For UAGCCGUUCG (pool 0.327) the result was inoculated region 0.165; leaf margin 0.339; systemic leaves 0.

Extract of 2 entries:

UCCUCGUGGG (pool 0.144) gave inoculated region 0.0656; leaf margin 0; systemic leaves 0.
UCGACGCUGG (pool 0.157) gave inoculated region 0.0759; leaf margin 0.00920; systemic leaves 0.

Sequences that differ at fixed positions probably stem from PCR or sequencing errors, and defective variants can be carried along by functional ones. For reference, wild type rose from 20.7 per thousand in the pool to 195, 198, 203 (inoculated region), 629, 591, 734 (leaf margin) and 942, 870, 868 (systemic leaves). Samples held 36,220 to 57,551 reads, so the smallest values rest on one or two reads.